The target of this experiment is Hall (A1) toxin (Clostridium botulinum (Hall strain)) (UniProt P0DPI1). Description: cell-based or functional assay.

In the case of “C25 IgG (chimeric, murine V-domains and human C-domains) (from UniProt P01857 1-330) (antibody)”, the Observed Toxin Neutralization (mouse, toxin and 50 ug Ab premixed, i.p.) is less than 20 LD50s.

For the origin of these results see patent EP2436774A2, “Therapeutic monoclonal antibodies that neutralize botulinum neurotoxins” (dated 2012).
